{"source": "the supplement of paper PMC9931576", "binders": {"B1": {"name": "BD55-6077 (protein)", "chain 1": "QVTLKESGPVLVKPTETLTLTCTVSGFSLSDAKLGVTWIRQPPGKALEWLALIFSNDDKSYSTSLESRLTISKDTSKSQVVLTMTNMDPVDTATYYCARLQTETYYYDSSGYYFDYWGQGTLVTVSS", "chain 2": "YELTQPPSVSVSPGQTARITCSGDALPMQWAYWYQQRPGQAPVVIIYKDSERPSGIPERFSGSSSGTTVTLTISGVQAEDEADYYCQSADSRGTVFGGGTKLTVL"}, "B2": {"name": "BD55-6064 (protein)", "chain 1": "QVQLVQSGAEVKKPGASVKVSCQASGYTFTNYYIHWVRQAPGHGLEWMGVINPSDDNTRYAQKFQGRVTLTWDTSTSTVYMELSSLRSEDTAVYYCAREERNYDLLTHYYHYGMDVWGQGSTVTVSS", "chain 2": "DIQMTQSPSSLSASVGDRVTITCRASQSISSYLNWYQQKPGKAPELLIYAASSLQSGVPSRFSGSESGTEFTLTISSLQREDFATYYCQQSYITPLTFGQGTKVEI"}, "B3": {"name": "BD55-6061 (protein)", "chain 1": "QVHLQESGPGLVKPSETLSLTCTVSGVSIVNSYWSWLRQPPGKGLEWVGYAYYSGDTNYNPSLKTRVSMSVDTSKKQFSLKLTSVTAADTAVYYCARHTPFCGGDCYPNFFYGMDVWGQGTTVTVSS", "chain 2": "DIQMTQSPSTLSASVGDRVTITCRASQTIGRWSAWYQQKPGTAPKLLISEASHLEGGVPSRFSGSGSGTEFTLTINSLQPDDFATYYCQQYSDFPWTFGRGTKVEIK"}, "B4": {"name": "BD55-6055 (protein)", "chain 1": "EVQLVESGGGLVKPGGSLRLSCAASGFTFSTFSMTWVRQPPGKGLEWVSSISRNSGLIFYADSVKGRFTVSRDNVKNSLHLQLSSLRAEDTAVYYCTREGSGQVAPLDYWGQGILVTVSS", "chain 2": "DIHMTQSPSSLSASVGDRVTITCRASQAIRNSLAWYQQKPGKAPKLLVYAASTLQSGVPPRFSGSGSGTDYTLTISSLQPEDFATYFCQQYYVTPQVTFGGGTKVEIK"}, "B5": {"name": "BD55-6053 (protein)", "chain 1": "EVQLVESGGGLVKTGGSLRLSCAASGFTFSTYSMNWVRQAPGKGLEWVSYISSSSSTIYYADSVKGRFTISRDNAKNLLYLQMNSLRDEDTAVYYCARWEGDYDLLTGYWGHFHYYGMDVWGQGTTVTVSS", "chain 2": "DIVMTQSPGSLAVSLGERATINCKSSQSVLYSPYNKDYLAWYQQKPGQPPKLLIYWASTRESGVPDRFSGSGSGTDFTLTISSLQAEDVAVYYCQQYYSIPLTFGGGTKVEIK"}, "B6": {"name": "BD55-6051 (protein)", "chain 1": "QVQLGQSGAEVKKPGASVKVSCKASGYTFPSYGITWVRQAPGQGLEWMGWIGDSNGNTYYAQKFQGRATMTTDTSTSTAYMELRGLRSDDTAVYYCARDRAYSGYDYLDHYYGMDVWGQGTTVTVSS", "chain 2": "EIALTQSPATLSLSPGERATLSCRASQSISSHLAWYQQKPGQAPRLLIYDASNRATGIPARFSGSGSGTDFTLTISSLEPEDFAVYYCQQRSKWPPYTFGQGTKLEIK"}}, "note": "Human monoclonal antibodies against the spike receptor-binding domain (heavy:light variable regions). IC50 against pseudoviruses bearing the spike of naturally observed variants; lower = stronger; >10 µg/ml means not reached at the top dose. No active / inactive call. The stated detection limit is 0.0005 µg/ml; values near or below 0.001 µg/ml lie at the floor of the assay.", "data": [{"target": "SARS-CoV-2 Omicron BA.1 spike pseudovirus", "assay": "pseudovirus neutralization IC50; higher = weaker neutralization", "experimental": "(§1)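 Single-round VSV luciferase pseudovirus mixed with antibody dilutions for 1 h and put on Huh-7 cells for about a day; IC50 from the dose curve.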", "units": {"pseudovirus neutralization IC50": "µg/mL"}, "values": [{"binder": "B1", "pseudovirus neutralization IC50": "> 10"}, {"binder": "B2", "pseudovirus neutralization IC50": "> 10"}, {"binder": "B3", "pseudovirus neutralization IC50": "> 10"}, {"binder": "B4", "pseudovirus neutralization IC50": "> 10"}, {"binder": "B5", "pseudovirus neutralization IC50": "> 10"}, {"binder": "B6", "pseudovirus neutralization IC50": "> 10"}]}, {"target": "SARS-CoV-2 Omicron BA.2 spike pseudovirus", "assay": "pseudovirus neutralization IC50; higher = weaker neutralization", "experimental": "as §1", "units": {"pseudovirus neutralization IC50": "µg/mL"}, "values": [{"binder": "B1", "pseudovirus neutralization IC50": "> 10"}, {"binder": "B2", "pseudovirus neutralization IC50": "> 10"}, {"binder": "B3", "pseudovirus neutralization IC50": "> 10"}, {"binder": "B4", "pseudovirus neutralization IC50": "> 10"}, {"binder": "B5", "pseudovirus neutralization IC50": "> 10"}, {"binder": "B6", "pseudovirus neutralization IC50": "> 10"}]}, {"target": "SARS-CoV-2 Omicron BA.2.75 spike pseudovirus", "assay": "pseudovirus neutralization IC50; higher = weaker neutralization", "experimental": "as §1", "units": {"pseudovirus neutralization IC50": "µg/mL"}, "values": [{"binder": "B1", "pseudovirus neutralization IC50": "> 10"}, {"binder": "B2", "pseudovirus neutralization IC50": "> 10"}, {"binder": "B3", "pseudovirus neutralization IC50": "> 10"}, {"binder": "B4", "pseudovirus neutralization IC50": "> 10"}, {"binder": "B5", "pseudovirus neutralization IC50": "> 10"}, {"binder": "B6", "pseudovirus neutralization IC50": "> 10"}]}, {"target": "SARS-CoV-2 Omicron BA.5 spike pseudovirus", "assay": "pseudovirus neutralization IC50; higher = weaker neutralization", "experimental": "as §1", "units": {"pseudovirus neutralization IC50": "µg/mL"}, "values": [{"binder": "B1", "pseudovirus neutralization IC50": "> 10"}, {"binder": "B2", "pseudovirus neutralization IC50": "> 10"}, {"binder": "B3", "pseudovirus neutralization IC50": "> 10"}, {"binder": "B4", "pseudovirus neutralization IC50": "> 10"}, {"binder": "B5", "pseudovirus neutralization IC50": "> 10"}, {"binder": "B6", "pseudovirus neutralization IC50": "> 10"}]}, {"target": "SARS-CoV-2 Omicron BQ.1.1 spike pseudovirus", "assay": "pseudovirus neutralization IC50; higher = weaker neutralization", "experimental": "as §1", "units": {"pseudovirus neutralization IC50": "µg/mL"}, "values": [{"binder": "B1", "pseudovirus neutralization IC50": "> 10"}, {"binder": "B2", "pseudovirus neutralization IC50": "> 10"}, {"binder": "B3", "pseudovirus neutralization IC50": "> 10"}, {"binder": "B4", "pseudovirus neutralization IC50": "> 10"}, {"binder": "B5", "pseudovirus neutralization IC50": "> 10"}, {"binder": "B6", "pseudovirus neutralization IC50": "> 10"}]}, {"target": "SARS-CoV-2 Omicron XBB spike pseudovirus", "assay": "pseudovirus neutralization IC50; higher = weaker neutralization", "experimental": "as §1", "units": {"pseudovirus neutralization IC50": "µg/mL"}, "values": [{"binder": "B1", "pseudovirus neutralization IC50": "> 10"}, {"binder": "B2", "pseudovirus neutralization IC50": "> 10"}, {"binder": "B3", "pseudovirus neutralization IC50": "> 10"}, {"binder": "B4", "pseudovirus neutralization IC50": "> 10"}, {"binder": "B5", "pseudovirus neutralization IC50": "> 10"}, {"binder": "B6", "pseudovirus neutralization IC50": "> 10"}]}, {"target": "SARS-CoV-2 early D614G spike pseudovirus", "assay": "pseudovirus neutralization IC50; higher = weaker neutralization", "experimental": "as §1", "units": {"pseudovirus neutralization IC50": "µg/mL"}, "values": [{"binder": "B1", "pseudovirus neutralization IC50": "> 10"}, {"binder": "B2", "pseudovirus neutralization IC50": "> 10"}, {"binder": "B3", "pseudovirus neutralization IC50": "> 10"}, {"binder": "B4", "pseudovirus neutralization IC50": "> 10"}, {"binder": "B5", "pseudovirus neutralization IC50": "> 10"}, {"binder": "B6", "pseudovirus neutralization IC50": "> 10"}]}]}
